Measured values reported in patent US8884011B2, “Nucleotide analogues as precursor molecules for antivirals” (Centre National de la Recherche Scientifique-CNRS, priority 2006, dated 2014).

Tests used:
HIV-1 (IIIB) = experiment: Anti-HIV test in CEM cell cultures, syncytium formation, HIV-1 (IIIB); details: CEM cells
Protocol: Briefly, CEM cells (4.5×10^5 cells per ml) were suspended in fresh culture medium and infected with HIV-1 at 100 CCID50 per ml of cell suspension. Then, 100 μl of the infected cell suspension were transferred to microplate wells, mixed with 100 μl of the appropriate dilutions of the test compounds, and further incubated at 37° C. After 4 to 5 days, giant cell formation was recorded microscopically in the CEM cell cultures.

HIV-1-LAI = experiment: Anti-HIV test in CMSP cultures infected by HIV-1-LAI (RT activity in supernatants); assay type: cell-based
HIV-2 (ROD) = experiment: Anti-HIV test in CEM cell cultures, syncytium formation, HIV-2 (ROD); details: CEM cells

SMILES	SI HIV-1 (TC50/EC50) (HIV-1 (IIIB))	IT (selectivity index, TC50/EC50) (HIV-1-LAI)	SI HIV-2 (TC50/EC50) (HIV-2 (ROD))
Nc1ncnc2c1ncn2CCOCP(O)(O)=S [Compound 6, 9-[2-(thiophosphonomethoxy)ethyl]adenine]	27	>6	31
C[C@H](Cn1cnc2c(N)ncnc21)OCP(O)(O)=S [Compound 11, (R)-9-[2-(thiophosphonomethoxy)propyl]adenine]	15	>63	19
